# Laboratory results reported in patent publication US20230296621A1.
# Columns and labels:
# [1] = target: S sensors S15 + L15: S(aa 328-533)-15aa-SmBiT and S(aa 328-533)-15aa-LgBiT (SARS-CoV-2)
# [2] = target: S sensors S25 + L25: S(aa 328-533)-25aa-SmBiT and S(aa 328-533)-25aa-LgBiT (SARS-CoV-2)
substance,measurement,setting,value
CR3022 IgG (antibody),luminescence signal,[1],132
same,luminescence signal,[2],28
